Pooled drug test results. Numbers come from NIAID ChemDB, via PubChem.

Shared fields: tests in culture; species: Rhinovirus; read by: plaque count; endpoint: EC50

ECn is the concentration giving n% inhibition of infection, replication or growth.

structure | cells | strain or isolate | result
O=C(/C=C(\O)c1ccccc1O)/C=C/c1ccc(O)cc1 | HeLa | Serotype 1B | >12.5 µM
CNC(=O)/C=C(\c1ccccc1)c1ccc2nc(N)cn2c1 | H-HELA | TYPE 14 | >10 µg/mL
CC(=O)Nc1cccc(Nc2nc(Cl)nc3c2ncn3Cc2ccccc2)c1 |  | Serotype 4 | 2.8 µM
COc1ccc(CC2COc3cc(OC)cc(OC)c3C2=O)cc1 | HeLa | TYPE 14 | >6.25 µM
CN(C)c1nc(C(F)(F)F)nc2c1ncn2Cc1ccc(F)cc1 | M-HELA | Serotype 3 | >8 µM
COc1cc(C(=O)Oc2c(-c3ccc(Cl)c(Cl)c3)oc3ccccc3c2=O)ccc1OC(C)=O | HeLa | Serotype 1B | >1.56 µM
NCC(=O)Nc1ccc(Cn2cnc3c(N)ncnc32)cc1 | M-HELA | Serotype 1B | >50 µM
O=C(O)c1ccc(/C=C/C(=O)c2ccccc2O)cc1 | OHIO HELA | TYPE 1B | 24.44 µM
O=C1c2cc(Cl)ccc2OCC1Cc1ccc(Cl)cc1 | HeLa | TYPE 14 | 13.54 µM
O=c1c(O)c(-c2ccc(C3=NCCO3)cc2)oc2ccc(Cl)cc12 | OHIO HELA | TYPE 1B | 12.1 µM
CN(C)c1ncnc2c1ncn2Cc1ccc(N)cc1 | M-HELA | Serotype 1B | >50 µM
Cn1c2ccccc2c2nnc(NCCCCO)nc21 | WI-38 | 1059 | 20 µg/mL
Cc1ccc(Cn2cnc3c(N(C)C)nc(C(F)(F)F)nc32)c(C)c1 | M-HELA | Serotype 1B | 0.11 µM
CNC(=O)C(c1ccc2nc(N)n(S(=O)(=O)C(C)C)c2c1)c1cc(F)ccc1F | HeLa | 1059 (serotype 14) | 0.06 µg/mL
COc1cc(/C=C/C(=O)Oc2c(-c3ccc(Cl)cc3)oc3ccccc3c2=O)ccc1O | HeLa | Serotype 14 | 3.24 µM
NC(=O)C(c1cccc(F)c1)c1ccc2nc(N)n(S(=O)(=O)N3CCOCC3)c2c1 | HeLa | 1059 (serotype 14) | 0.08 µg/mL
Cc1cc(CCCOc2c(C)cc(-c3nnn(C)n3)cc2C)on1 |  | Serotype 3 | 0.576 µg/mL
Cc1ccc(/C=C/C(=O)/C=C(\O)c2ccccc2O)cc1 | HeLa | Serotype 1B | 11.88 µM
COc1cc(C(=O)Oc2c(-c3ccc(Cl)c(Cl)c3)oc3ccccc3c2=O)cc(OC)c1O | HeLa | Serotype 14 | >1.56 µM
O=C1CC(c2ccc(C3=NCCO3)cc2)Oc2ccccc21 | OHIO HELA | TYPE 1B | >25 µM
N#Cc1ccc2c(c1)C=C(c1ccccc1)CO2 | HeLa | Serotype 1B | 4.8 µM
COc1ccc(Cc2coc3ccccc3c2=O)cc1 | HeLa | TYPE 1B | 7.86 µM
Cn1c2ccccc2c2nnc(NCC(C)(C)CO)nc21 | WI-38 | 1059 | 20 µg/mL
N#Cc1ccc(C2=Cc3cc(C#N)ccc3OC2)cc1 | HeLa | Serotype 1B | 5.76 µM
CNC(=O)/C=C(\c1ccccc1)c1ccc2nc(N)c(-c3ccccc3)n2c1 | H-HELA | TYPE 14 | 0.27 µg/mL
CC(C)S(=O)(=O)n1c(N)nc2ccc(C(C(N)=O)c3cccc(F)c3F)cc21 | HeLa | 1059 (serotype 14) | 0.01 µg/mL
COc1cc(/C=C/C(=O)Oc2c(-c3ccc(Cl)c(Cl)c3)oc3ccccc3c2=O)ccc1OC(C)=O | HeLa | Serotype 1B | >0.39 µM
N#Cc1ccc2c(c1)CC(c1ccccc1)CO2 | HeLa | Serotype 1B | 0.58 µM
c1cc(C2CCc3cc(C4=NCCO4)ccc3O2)ccc1C1=NCCO1 | HeLa | TYPE 1B | 1.64 µM
Cc1cc(CCCCCOc2c(Cl)cc(C3=NCCO3)cc2Cl)on1 | HeLa | TYPE 4 | 1.5 µg/mL
Nc1ccc(/C=C/c2cc(=O)c3ccccc3o2)cc1 | HeLa | Serotype 14 | 13.46 µM
COc1ccc(OCCCCCCn2ccnc2)c(Cl)c1 | HeLa | TYPE 61 | 29.1 µM
COc1ccc(Cn2cnc3c(N(C)C)nc(C(F)(F)F)nc32)cc1C | M-HELA | Serotype 29 | >8 µM
COc1cc(/C=C/C(=O)Oc2c(-c3ccc(Cl)cc3)oc3ccccc3c2=O)ccc1OC(C)=O | HeLa | Serotype 14 | >1.56 µM
CC(C)Oc1ccccc1NC(=O)Nc1ccc2cnccc2n1 |  |  | 1 µg/mL
CCc1ccc(Cn2cnc3c(N(C)C)nc(Cl)nc32)cc1 | M-HELA | Serotype 8 | >4 µM
O=C1/C(=C/c2ccc(Cl)cc2)COc2cc(Cl)cc(Cl)c21 | HeLa | TYPE 1B | 0.36 µM
Brc1ccc(C2=Cc3cc(Br)ccc3OC2)cc1 | M-HELA | Serotype 1B | 3.28 µM
c1ccc(C2CCc3cc(C4=NCCO4)ccc3O2)cc1 | HeLa | TYPE 1B | 4.01 µM
CN(C)c1nc(Cl)nc2c1ncn2Cc1ccc(Cl)cc1 | M-HELA | Serotype 18 | >5 µM
Brc1ccc2c(c1)C=C(c1ccccc1)CO2 | HeLa | Serotype 1B | 5.12 µM
CCn1c2ccccc2c2nnc(NCCCO)nc21 | WI-38 | 1059 | 45 µg/mL
Cc1cc(CCCOc2c(C)cc(-c3coc(C)n3)cc2C)on1 |  | Serotype 1 | 0.347 µg/mL
CC(C)CC(N)C(=O)Nc1ccc(Cn2cnc3c(N(C)C)ncnc32)cc1 | M-HELA | Serotype 1B | >50 µM
CNC(=O)/C=C(\c1ccccc1)c1ccc2nc(N)c(-c3cc(F)ccc3F)n2c1 | H-HELA | TYPE 14 | 0.18 µg/mL
N#Cc1ccc(C2CCc3ccccc3O2)cc1 | HeLa | TYPE 1B | 2.88 µM
O=C1c2ccccc2OCC1Cc1ccccc1 | HeLa | TYPE 14 | >50 µM
N=C(N)c1ccc2c(c1)CC(c1ccccc1)CO2 | HeLa | Serotype 1B | 8 µM
Brc1ccc2c(c1)C=C(c1ccccc1)CO2 | M-HELA | Serotype 1B | 1.464 µM
CN(C)c1nc(C(F)(F)F)nc2c1ncn2Cc1ccc(Cl)c(Cl)c1 | M-HELA | Serotype 1B | 0.12 µM
CN(C)c1nc(Cl)nc2c1ncn2Cc1cccc([N+](=O)[O-])c1 | M-HELA | Serotype 1B | >50 µM
Clc1ccc2c(c1)C=C(c1ccc(Br)cc1)CO2 | M-HELA | Serotype 1B | 3.24 µM
Nc1ncnc2c1ncn2Cc1cccc(NC(=O)C(Cc2ccccc2)NC(=O)OCc2ccccc2)c1 | M-HELA | Serotype 1B | >50 µM
Cc1ccc(Cn2cnc3c(N(C)C)nc(C(F)(F)F)nc32)cc1 | M-HELA | TYPE 21 | >8 µM
CN(C)c1ncnc2c1ncn2Cc1ccccc1NC(=O)CN | M-HELA | Serotype 1B | >50 µM
O=C(/C=C(\O)c1cc(Cl)ccc1O)/C=C/c1ccc(Cl)cc1 | HeLa | Serotype 1B | 5.34 µM
Fc1cccc(Cn2cnc3c(Nc4cccc(F)c4)nc(C(F)(F)F)nc32)c1 | M-HELA | Serotype 31 | 5.4 µM
CN(C)c1nc(C(F)(F)F)nc2c1ncn2Cc1ccc(Cl)c(N)c1 | M-HELA | Serotype 30 | >8 µM
O=C(O)c1ccc(C2CC(=O)c3cc(Cl)ccc3O2)cc1 | OHIO HELA | TYPE 1B | >25 µM
N#Cc1ccc2c(c1)CCC(c1ccc(Cl)cc1)O2 | HeLa | TYPE 1B | 0.0085 µM
COc1cc(/C=C/C(=O)Oc2c(-c3ccc(Cl)c(Cl)c3)oc3ccccc3c2=O)ccc1O | HeLa | Serotype 14 | >1.56 µM
COc1ccc(CC2COc3ccccc3C2=O)cc1 | HeLa | TYPE 1B | 5.98 µM
O=C(/C=C(\O)c1ccccc1O)/C=C/c1ccc(Cl)cc1 | HeLa | Serotype 1B | 10.8 µM
CNC(=O)/C=C(\c1ccccc1)c1ccc2nc(N)c(S(=O)(=O)C(C)C)n2c1 | H-HELA | TYPE 14 | 0.64 µg/mL
N#Cc1ccc(Cn2cnc3c(Nc4cccc(F)c4)nc(C(F)(F)F)nc32)cc1 | M-HELA | Serotype 5 | 190 µM
N#Cc1ccc(C2=Cc3ccccc3OC2)cc1 | HeLa | Serotype 1B | 1.41 µM
Clc1ccc(C2=Cc3ccccc3OC2)cc1 | M-HELA | Serotype 1B | 1.031 µM
CN(C)c1nc(C(F)(F)F)nc2c1ncn2Cc1ccc([N+](=O)[O-])cc1 | M-HELA | Serotype 15 | >8 µM
Cn1c(O)c(N=NC(N)=S)c2ccccc21 | WI-38 | 33342 | 21 µg/mL
CC(=O)c1c(-c2ccc(Cl)cc2)oc2ccccc2c1=O | HeLa | Serotype 1B | 1.36 µM
O=C(O)c1ccc(-c2oc3ccc(Cl)cc3c(=O)c2O)cc1 | OHIO HELA | TYPE 1B | 8.68 µM
Cc1ccc(Cn2cnc3c(N(C)C)nc(C(F)(F)F)nc32)cc1C | M-HELA | Serotype 21 | >8 µM
CC(=O)NCCCNc1nnc2c3ccccc3n(C)c2n1 | WI-38 | 1059 | 10 µg/mL

For reference, 7 entries again:

structure | cells | strain or isolate | result
CNC(=O)C(c1ccc2nc(N)n(S(=O)(=O)C(C)C)c2c1)c1cc(F)ccc1F | HeLa | 1059 (serotype 14) | 0.06 µg/mL
COc1cc(/C=C/C(=O)Oc2c(-c3ccc(Cl)c(Cl)c3)oc3ccccc3c2=O)ccc1O | HeLa | Serotype 14 | >1.56 µM
Cc1cc(CCCOc2c(C)cc(-c3coc(C)n3)cc2C)on1 |  | Serotype 1 | 0.347 µg/mL
Cc1ccc(Cn2cnc3c(N(C)C)nc(C(F)(F)F)nc32)cc1C | M-HELA | Serotype 21 | >8 µM
c1ccc(C2CCc3cc(C4=NCCO4)ccc3O2)cc1 | HeLa | TYPE 1B | 4.01 µM
NCC(=O)Nc1ccc(Cn2cnc3c(N)ncnc32)cc1 | M-HELA | Serotype 1B | >50 µM
c1cc(C2CCc3cc(C4=NCCO4)ccc3O2)ccc1C1=NCCO1 | HeLa | TYPE 1B | 1.64 µM

Neighbouring rows are from separate reports. Blank or dashed fields: not listed here.